Pooled drug test results. Numbers come from NIAID ChemDB, via PubChem.

ICn is the concentration giving n% inhibition.

SMILES,kind,organism,strain or isolate,cells,protein,method,measure,dose,value
Nc1ccc(S(=O)(=O)NO)cc1,culture,Mycobacterium tuberculosis,H37Rv,,,,MIC,,100 µg/mL
O=C1C=C(Nc2ccc([N+](=O)[O-])cc2)c2ccccc2C1=O,culture,Mycobacterium tuberculosis,H37Rv,,,resazurin,MIC,,≤0.1 µg/mL
COc1ccc(-c2cncc(N3CCN(c4ccccc4OC)CC3)n2)cc1OC,target,Cytomegalovirus,,,UL97 kinase,,IC50,,<10 µM
Fc1ccc(N2CCCCC2)c(NC(=S)c2ccncc2)c1,host protein,,,,GSK3beta,kinase activity,inhibition,10 µM,79%
CN1CCC2(CC1)C(=O)N(N1CCCCCC1)C(=O)N2c1ccccc1,culture,Mycobacterium tuberculosis,H37Rv,,,BACTEC,MIC bound,,>12.5 µg/mL
Cc1ccc(C(=O)NNC(=O)c2ccccc2C)cc1,culture,Mycobacterium tuberculosis,H37Rv,,,,MIC,,>100 µg/mL
C=CCc1ccc(O)c(OC)c1,culture,Candida parapsilosis,2383,,,turbidity,MIC90,,500 µg/mL
Nc1c(S(=O)(=O)[O-])cc2cc(S(=O)(=O)[O-])ccc2c1N=Nc1ccc(-c2ccc(N=Nc3c(N)c(S(=O)(=O)[O-])cc4cc(S(=O)(=O)[O-])ccc34)c(S(=O)(=O)[O-])c2)cc1.[Na+].[Na+].[Na+].[Na+].[Na+],culture,Mycobacterium tuberculosis,H37Rv,,,BACTEC,inhibition,12.5 µg/mL,5%
CC1=C(O)c2ccccc2C(=O)C1=O,culture,Mycobacterium tuberculosis,H37Rv,,,,MIC,,>100 µg/mL
NCS(=O)(=O)O,culture,Herpes simplex virus,,Human amnion AV3 cells,,cytopathic effect,inhibition,10 µg/mL,70%
CC(=O)NC1=C(C)C(=O)c2c(nc3n2CCC3OC(=O)c2ccccc2)C1=O,culture,Mycobacterium tuberculosis,H37Rv,,,BACTEC,MIC bound,,>12.5 µg/mL
Clc1ccc(N2CCN(c3cncc(-c4ccoc4)n3)CC2)cc1,target,Cytomegalovirus,,,UL97 kinase,,inhibition,10 µM,>15%
FC(F)(F)c1ccc2cccnc2c1,culture,Mycobacterium tuberculosis,H37Rv,,,,MIC,,>100 µg/mL
CC(=O)c1ccc(N2CCN(c3cncc(-c4ccc(C(C)(C)C)cc4)n3)CC2)cc1,target,Cytomegalovirus,,,UL97 kinase,,inhibition,10 µM,>15%
O=C(O)c1ccc(Cc2ccc(C(=O)O)cc2)cc1,culture,Mycobacterium tuberculosis,H37Rv,,,,MIC,,>100 µg/mL
COc1ccc(N2CCN(c3cncc(-c4cccc(OC)c4OC)n3)CC2)cc1OC,target,Cytomegalovirus,,,UL97 kinase,,IC50,,<100 µM
Cc1cc(-c2ccc(N=Nc3c(S(=O)(=O)O)cc4cc(S(=O)(=O)O)cc(N)c4c3O)c(C)c2)ccc1N=Nc1c(S(=O)(=O)O)cc2cc(S(=O)(=O)O)cc(N)c2c1O,culture,Rhinovirus,,Human amnion AV3 cells,,cytopathic effect,inhibition,50 µg/mL,0%
COC(=O)C(C(=O)C(=O)Nc1ccc(C(F)(F)F)cc1[N+](=O)[O-])c1csc(-n2nc(-c3ccccc3)cc2-c2ccccc2)n1,culture,Mycobacterium tuberculosis,H37Rv,,,resazurin,inhibition,6.25 µg/mL,28%
Cc1cc(C)c(C)c(C(=N/N)/C(=N/N)c2ccccc2)c1C,culture,Mycobacterium tuberculosis,H37Rv,,,,MIC,,>100 µg/mL
Cc1ccc(N2CCN(c3cncc(-c4ccc(CO)cc4)n3)CC2)c(C)c1,target,Cytomegalovirus,,,UL97 kinase,,IC50,,<100 µM
CCn1c2ccccc2c2cc(N)ccc21,culture,Mycobacterium tuberculosis,H37Rv,,,,MIC,,>100 µg/mL
O=C(CCSCCC(=O)N/N=C(\CO)C(O)C(O)C(O)CO)N/N=C(\CO)C(O)C(O)C(O)CO,culture,Mycobacterium tuberculosis,H37Rv,,,BACTEC,MIC,,≥12.5 µg/mL
NC(=O)c1ccccc1-c1cncc(N2CCN(c3ccncc3)CC2)n1,target,Cytomegalovirus,,,UL97 kinase,,IC50,,<100 µM
Nc1c(S(=O)(=O)[O-])cc2cc(S(=O)(=O)[O-])ccc2c1O,culture,Rhinovirus,,Human amnion AV3 cells,,cytopathic effect,inhibition,10 µg/mL,0%
C=C(Cl)CN(C(C)=O)c1ccccc1,culture,Mycobacterium tuberculosis,H37Rv,,,,MIC,,>100 µg/mL
COc1ccccc1N1CCN(c2cncc(-c3csc4ccccc34)n2)CC1,target,Cytomegalovirus,,,UL97 kinase,,inhibition,10 µM,>15%
CC(N)C(=O)NC1C(O)OC(CO)C(O)C1O,culture,Mycobacterium tuberculosis,H37Rv,,,BACTEC,inhibition,12.5 µg/mL,-27%
O=[N+]([O-])c1cccc2c(Cl)nccc12,culture,Mycobacterium tuberculosis,H37Rv,,,,MIC,,100 µg/mL
O=[N+]([O-])c1cc([N+](=O)[O-])c2ccc(S(=O)(=O)O)cc2c1O,culture,Herpes simplex virus,,Human conjunctiva cells,,cytopathic effect,inhibition,5 µg/mL,20%
COc1cc(OC)c2nc3occc3c(OC)c2c1,culture,Mycobacterium tuberculosis,H37Rv,,,BACTEC,inhibition,12.8 µg/mL,33%
N#Cc1ccc(CCCBr)cc1,culture,Mycobacterium tuberculosis,H37Rv,,,,MIC,,>100 µg/mL
Oc1ccc(-c2cncc(N3CCN(c4ccncc4)CC3)n2)cc1,target,Cytomegalovirus,,,UL97 kinase,,inhibition,10 µM,>15%
O=Cc1ccccc1OCC(=O)O,culture,Mycobacterium tuberculosis,H37Rv,,,,MIC,,50 µg/mL
CC(C)=C1C(=O)NC(=O)C1C(N)=O,culture,Mycobacterium tuberculosis,H37Rv,,,BACTEC,inhibition,12.5 µg/mL,-2%
Cc1cc(-c2ccc(N=Nc3c(N)c(S(=O)(=O)O)cc4cc(S(=O)(=O)O)ccc34)c(C)c2)ccc1N=Nc1c(N)ccc2cc(S(=O)(=O)O)ccc12,culture,Herpes simplex virus,,Human conjunctiva cells,,cytopathic effect,inhibition,10 µg/mL,100%
COC(=O)C(C(=O)C(=O)Nc1c(Cl)cc([N+](=O)[O-])cc1Cl)c1csc(-n2nc(C3=CCCCC3)cc2-c2ccccc2)n1,culture,Mycobacterium tuberculosis,H37Rv,,,resazurin,MIC bound,,>6.25 µg/mL
O=S(=O)(O)c1ccccc1,culture,Mycobacterium tuberculosis,H37Rv,,,,MIC,,>100 µg/mL
CON/C=C(C#N)/C=C/C=Nc1ccc(S(=O)(=O)N=C(N)N)cc1,culture,Mycobacterium tuberculosis,H37Rv,,,BACTEC,inhibition,12.5 µg/mL,58%
CCOC(=O)/C(C#N)=C\c1c[nH]c2ccccc12,culture,Mycobacterium tuberculosis,H37Rv,,,,MIC,,100 µg/mL
O=C(O)c1cccc2ccc3c(c12)Nc1ccccc1S3,culture,Mycobacterium tuberculosis,H37Rv,,,BACTEC,inhibition,12.5 µg/mL,57%
COc1ccc(/C=C2/C=C(C)OC2=O)c(OC)c1,culture,Mycobacterium tuberculosis,H37Rv,,,,MIC,,>100 µg/mL
CCOP(=O)(OCC)C(NC(=O)OCC(Cl)(Cl)Cl)n1nnc(C(=O)OC)c1C(=O)OC,culture,Mycobacterium tuberculosis,H37Rv,,,resazurin,inhibition,6.25 µg/mL,20%
Cl.N=C(N)SCc1ccccc1,culture,Mycobacterium tuberculosis,H37Rv,,,,MIC,,25 µg/mL
Cl.Cn1c(COc2ccc(/C=N/N=C(\N)N/N=C/c3ccc(OCc4c[n+]5ccccc5n4C)cc3)cc2)c[n+]2ccccc12.[Cl-].[Cl-],culture,Mycobacterium tuberculosis,H37Rv,,,BACTEC,inhibition,12.5 µg/mL,0%
COc1ccc(N2CCN(c3cncc(-c4ccc(F)cc4)n3)CC2)cc1,target,Cytomegalovirus,,,UL97 kinase,,IC50,,<10 µM
O=[N+]([O-])c1cc(Cl)cc2c1NP(=O)(c1ccccc1)N2,culture,Mycobacterium tuberculosis,H37Rv,,,resazurin,MIC bound,,>6.25 µg/mL
CN(C)CCC(=O)c1ccc(Br)cc1,culture,Mycobacterium tuberculosis,H37Rv,,,,MIC,,25 µg/mL
C=C1C(OC(=O)C(C)C)C(O)C(=O)C(C)(C)/C=C\C(C)C(=O)C2(O)CC(C)C(OC(=O)CC)C2C1OC(=O)c1ccccc1,culture,Mycobacterium tuberculosis,H37Rv,,,BACTEC,inhibition,12.5 µg/mL,7%
O=C(Nc1c(S(=O)(=O)[O-])cc2cc(S(=O)(=O)[O-])cc(O)c2c1O)c1ccccc1,culture,Herpes simplex virus,,Human conjunctiva cells,,cytopathic effect,inhibition,10 µg/mL,0%
Cn1nc(-c2ccc(Cl)c(Cl)c2)nc2c(=O)n(C)c(=O)nc1-2,culture,Mycobacterium tuberculosis,H37Rv,,,BACTEC,MIC bound,,>12.5 µg/mL
Nc1ccccc1,culture,Mycobacterium tuberculosis,H37Rv,,,,MIC,,>100 µg/mL

The last 3 rows once more:

| SMILES | kind | organism | strain or isolate | cells | protein | method | measure | dose | value |
|---|---|---|---|---|---|---|---|---|---|
| O=C(Nc1c(S(=O)(=O)[O-])cc2cc(S(=O)(=O)[O-])cc(O)c2c1O)c1ccccc1 | culture | Herpes simplex virus |  | Human conjunctiva cells |  | cytopathic effect | inhibition | 10 µg/mL | 0% |
| Cn1nc(-c2ccc(Cl)c(Cl)c2)nc2c(=O)n(C)c(=O)nc1-2 | culture | Mycobacterium tuberculosis | H37Rv |  |  | BACTEC | MIC bound |  | >12.5 µg/mL |
| Nc1ccccc1 | culture | Mycobacterium tuberculosis | H37Rv |  |  |  | MIC |  | >100 µg/mL |

MIC bound comes from a single tested concentration. An empty or dashed field is not shown. Neighbouring rows are from separate reports. Percent inhibition refers to the dose given; in toxicity tests it is the harm to the cells. A number after MIC or MFC names an inhibition level or a share of isolates.